# Experimental data as given in article PMC12443476 (eLife, 2025).
# B1: Orf9b ∆91–97 (domain or fragment)
# chain: not shown
# notes: also called truncated Orf9b; 'obligate' monomer
# Target: T1, hTom70 ([…]) lacking the transmembrane domain (human)
# T1 construct: also called Translocase of Outer Membrane 70
# Test: fluorescence polarisation
# Settings: both partners purified
binder,measurement,value
B1,binding result,binds
